Experimental data: PubChem BioAssay AID1259414 (Drosophila RNAi Screening Center, 2018)
The screen tested about 24,000 reagents; shown is an unselected part of those with a known target gene and a result. In the full data, about 1,210 (5%) got an active call. 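Inactive calls also include excluded dsRNAs with several or no targets, genes unexpressed in JW18, and well A1, regardless of score.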 Entries without a mark were called inactive. Names joined by + are all predicted targets of the reagent. Reagent sequences are not shown.

Assay: 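Host factors increasing or decreasing Wolbachia levels in cultured fly cells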 (primary screen)
System: Drosophila JW18 cells infected with Wolbachia
Reagent: long dsRNA against Drosophila genes, 0.25 µg dsRNA per well of a 384-well plate
Time to read-out: 5 days
Conditions: cells persistently infected with Wolbachia before knock-down; no added drug
Measured: 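Imaged fluorescence in situ signal for Wolbachia 23S rRNA per DAPI-counted host cell, given as a robust z-score within each plate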
Reading the numbers: Wolbachia per cell robust z: higher = more Wolbachia per host cell than the plate typical
Active means: 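Active if absolute robust z reaches 1.5 in two or more of three replicates, leaving out multi- or no-target dsRNAs, genes unexpressed in JW18 and A1 wells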

| target gene | dsRNA | Wolbachia per cell robust z, rep 1 | Wolbachia per cell robust z, rep 2 | Wolbachia per cell robust z, rep 3 |
| --- | --- | --- | --- | --- |
| CG43077 | DRSC40519 | 0.717 | -1.34 | 0.479 |
| Or49a | DRSC07493 | 0.00443 | 0.0983 | -0.248 |
| TM9SF4 | DRSC01888 | -0.475 | 0.0413 | 0.763 |
| CG13982 | DRSC02314 | 0.657 | 0.071 | -7.64 |
| CG15878 | DRSC08486 | -0.794 | -1.27 | -2.9 |
| CG15878 | DRSC28875 | -0.415 | -0.27 | -0.176 |
| CG17032 | DRSC10241 | -0.422 | -0.183 | 1.08 |
| CG30373 | DRSC05081 | 0.263 | 0.396 | -0.676 |
| CG30373 | DRSC29668 | 0.0247 | 0.0502 | 0.891 |
| Best4 | DRSC10792 | 0.865 | 0.474 | 0.125 |
| Best4 | DRSC29196 | 0.787 | -0.213 | 0.0953 |
| Best4 | DRSC39053 | 0.219 | 0.65 | -0.229 |
| CG10700 | DRSC02096 | 0.0886 | 0.107 | 1.13 |
| CG12883 | DRSC14570 | -0.136 | 0.839 | -0.552 |
| CG12883 | DRSC27305 | 0.291 | -0.424 | 0.0212 |
| RpL28 + snoRNA:Me28S-C3351 | DRSC26182 | 0.704 | -0.443 | 3.82 |
| AstCC | DRSC02404 | -0.367 | -1.65 | -0.0191 |
| Prp4k | DRSC08144 | 0.0696 | 1.03 | -0.18 |
| Prp4k | DRSC27510 | 0.409 | -1.32 | 0.471 |
| CR42490 | DRSC01649 | 0.219 | 0.487 | -8.5 |
| CR42490 | DRSC28297 | 0.682 | -0.248 | 0.366 |
| Obp19c | DRSC20528 | -1.83 | -2.22 | -2.13 |
| CG8611 | DRSC19340 | -2.36 (active) | -5.39 | 0.591 |
| CG8611 | DRSC24619 | -4.25 | 0.572 | -0.293 |
| Hsc70-2 | DRSC16710 | -0.329 | 0.503 | -0.0453 |
| Hsc70-2 | DRSC28457 | 1.3 | 2.05 | 1.21 |
| CG12126 | DRSC06103 | -0.252 | -0.982 | -7.41 |
| CG7849 | DRSC04895 | 1.39 | 0.465 | 0.219 |
| CG7849 | DRSC26457 | -0.332 | 0.405 | 0.257 |
| tplus3a | DRSC41325 | 0.785 | -2.41 | 0.832 |
| CG33467 | DRSC05525 | -0.777 | 0.536 | -0.576 |
| CG33467 | DRSC22651 | 0.0877 | 0.551 | -0.606 |
| Fbp2 | DRSC03327 | 0.607 | 0.83 | -0.76 |
| Fbp2 | DRSC29036 | 0.831 | 0.602 | -0.216 |
| CG43349 | DRSC00039 | -1.47 | -1.17 | -0.534 |
| tadr | DRSC03177 | -0.0476 | 0.403 | 1.02 |
| byn | DRSC11332 | -2.9 | 0.65 | 0.807 |
| byn | DRSC29142 | 0.0558 | 0.257 | 0.17 |
| CG14676 | DRSC12262 | 0.0607 | -1.52 | -0.94 |
| CG14676 | DRSC41512 | 0.752 | 0.0224 | 0.928 |
| CG1542 | DRSC15035 | 2.25 (active) | 1.48 | 1.63 |
| CG1542 | DRSC28631 | -1.45 | -0.263 | 1.27 |
| CG8509 | DRSC20109 | -2.35 (active) | 0.662 | -2.72 |
| CG8509 | DRSC41577 | 0.513 | 0.974 | -2.12 |
| ZC3H3 | DRSC10696 | 3.27 (active) | 3.41 | 4.35 |
| ZC3H3 | DRSC28763 | -1.4 | -0.727 | -2.12 |
| ZC3H3 | DRSC39048 | 5.16 (active) | 3.03 | 6.8 |

Reformatted: 7 of the entries above.
target gene	dsRNA	Wolbachia per cell robust z, rep 1	Wolbachia per cell robust z, rep 2	Wolbachia per cell robust z, rep 3
CG15878	DRSC08486	-0.794	-1.27	-2.9
CG15878	DRSC28875	-0.415	-0.27	-0.176
CG17032	DRSC10241	-0.422	-0.183	1.08
CG30373	DRSC05081	0.263	0.396	-0.676
CG30373	DRSC29668	0.0247	0.0502	0.891
Best4	DRSC10792	0.865	0.474	0.125
Best4	DRSC29196	0.787	-0.213	0.0953
